These results are taken from PubChem BioAssay AID588501 (NMMLSC, 2011).

This is a selection; strong and weak results do not stand in their true shares. Active and inactive are the calls of the source. No stated cut-off is given here; in the data, active means inhibition above about 30%; inconclusive means no clear call, values can overlap the other calls; inactive means below that.

For the test, the target named is Lethal factor (Bacillus anthracis) (UniProt P15917). Briefly: anthrax lethal factor cleavage blockers – biochemical, multiplex microsphere, MLPCN library, primary screen (AID 588501). Further: plate controls were buffer without enzyme for full effect and enzyme alone for no effect. As to conditions: multiplex microsphere protease cleavage assay, LF; at 10 µM; active compounds read high.
On to `CCCOc1ccc(C(=O)NCC2(N(C)C)CCCCC2)cc1OC`, for which the inhibition was inactive: -7.3%.

For the compound `Cc1ccc(C(=O)NCC2(N(C)C)CCCCC2)o1`, the inhibition was inactive: 0.1%.

Consider `CN1CCC(Nc2cccc(F)c2)CC1`, for which the inhibition was inactive: -0.9%.

Turning to `O=C(NCC1(N2CCCCC2)CCCCC1)c1cncc(Br)c1`, the inhibition is inactive: 0%.

Regarding `O=C(NCC1(N2CCOCC2)CCCCC1)c1cc(F)c(F)cc1Cl`, the inhibition is inactive: -1.9%.

As to `CCC(c1nnnn1C(C)(C)C)N1CCC(n2c(=O)[nH]c3ccccc32)CC1` (stereo unspecified), the inhibition is inactive: -5.5%.

Turning to `COc1cc(OC)c(C(=O)NCC2(N(C)C)CCCCC2)cc1OC`, the inhibition was inactive: -7.6%.

Take `CCCCn1nnnc1C(c1ccnc2ccccc12)N1CCC(n2c(=O)[nH]c3ccccc32)CC1` (stereo unspecified): the inhibition was inactive: 3.5%.

As for `CCCCn1nnnc1C(c1ccccc1OC(F)(F)F)N1CCC(n2c(=O)[nH]c3ccccc32)CC1` (stereo unspecified), the inhibition was inactive: 0.3%.

For `CC(C)c1ccc(NC2CCN(C(=O)OC(C)(C)C)CC2)cc1`, the inhibition was inactive: -3.7%.

Turning to `CN(C)c1cccc(C(=O)NCC2(N3CCCCC3)CCCCC2)c1`, the inhibition was inactive: 3%.

As for `COc1ccc(CN(CCCl)CCCl)cc1Cl`, the inhibition is inactive: 0.3%.

In the case of `COc1ccc(Cl)cc1C(=O)NCC1(N2CCOCC2)CCCCC1`, the inhibition is inactive: 4.6%.

Take `O=C(NCC1(N2CCCCC2)CCCCC1)c1ccc(Cl)s1`: the inhibition was inactive: -2.8%.

Take `N#CC1(Nc2ccccc2)CCN(Cc2ccccc2)CC1`: the inhibition was inactive: 10.6%.

Regarding `O=C(OC1CN2CCC1CC2)C1c2ccccc2Oc2ccccc21` (stereo unspecified), the inhibition was inactive: -3.9%.

Consider `O=c1[nH]c2ccccc2n1C1CCN(C(c2cc3ccccc3o2)c2nnnn2C2CCCCC2)CC1` (stereo unspecified), for which the inhibition is inactive: -4.7%.

As for `CCCCn1nnnc1C(c1ccc(OC)cc1)N1CCC(n2c(=O)[nH]c3ccccc32)CC1` (stereo unspecified), the inhibition was inactive: 9.7%.

On to `CCOC(=O)N1CCC(Nc2ccc(OC)cc2)CC1`, for which the inhibition was inactive: -1%.

With `Cc1cc(C)cc(N(C(=O)c2ccccc2)C2CCN(C(=O)OC(C)(C)C)CC2)c1`, the inhibition was inactive: -14.7%.

Regarding `O=C(NCC1(N2CCCCC2)CCCCC1)c1ccc(Cl)nc1`, the inhibition is inactive: -1.6%.

As to `O=c1[nH]c2ccccc2n1C1CCN(C(c2ccccc2OC(F)(F)F)c2nnnn2C2CCCCC2)CC1` (stereo unspecified), the inhibition was inactive: 0.3%.

Regarding `O=C(NCC1(N2CCOCC2)CCCCC1)c1cc2ccccc2o1`, the inhibition was inactive: -15.5%.

Turning to `Cc1cccc(NC2(C#N)CCN(Cc3ccccc3)CC2)c1`, the inhibition was inactive: -4.2%.

Regarding `CSc1ccccc1C(=O)NCC1(N2CCCCC2)CCCCC1`, the inhibition was inactive: -5.4%.

Consider `COc1ccc(C(=O)NCC2(N3CCCCC3)CCCCC2)c(OC)c1OC`, for which the inhibition is inactive: -1.4%.

For `CC(C)(C)OC(=O)N1CCC(N(C(=O)c2ccccc2)c2ccc(F)cc2)CC1`, the inhibition was inactive: -8.4%.

In the case of `CCC(c1nnnn1C1CCCC1)N1CCC(n2c(=O)[nH]c3ccccc32)CC1` (stereo unspecified), the inhibition was inactive: -6%.

In the case of `COc1ccc(C(=O)NCC2(N3CCCCC3)CCCCC2)cc1`, the inhibition is inactive: 0.3%.

With `CCCCn1nnnc1C(CC)N1CCC(n2c(=O)[nH]c3ccccc32)CC1` (stereo unspecified), the inhibition is inactive: -2.9%.

For the compound `O=C(NCC1(N2CCCCC2)CCCCC1)c1cccs1`, the inhibition was inactive: 5.3%.

Turning to `CCCCn1nnnc1C(c1cccs1)N1CCC(n2c(=O)[nH]c3ccccc32)CC1` (stereo unspecified), the inhibition is inactive: 3.7%.

As to `O=C(NCC1(N2CCCCC2)CCCCC1)c1ccc(=O)[nH]c1`, the inhibition is inactive: 0.9%.

As to `CCOC(=O)N1CCC(Nc2cccc(C)c2)CC1`, the inhibition is inactive: -4.1%.

Consider `COc1cc(C(=O)NCC2(N(C)C)CCCCC2)ccc1OC(F)F`, for which the inhibition was inactive: -5.5%.

As for `O=c1[nH]c2ccccc2n1C1CCN(C(c2cccc3ccccc23)c2nnnn2C2CCCC2)CC1` (stereo unspecified), the inhibition is inactive: -0.7%.

As to `O=c1[nH]c2ccccc2n1C1CCN(C(c2ccccc2)c2nnnn2C2CCCCC2)CC1` (stereo unspecified), the inhibition is inactive: 2.5%.

For `COc1ccc(NC2CCN(CCc3ccccc3)CC2)c(OC)c1`, the inhibition was inactive: -8.4%.

As to `CCOC(=O)N1CCC(Nc2ccc(F)cc2)CC1`, the inhibition is inactive: 17.2%.

In the case of `CCCCn1nnnc1C(c1cc2ccccc2o1)N1CCC(n2c(=O)[nH]c3ccccc32)CC1` (stereo unspecified), the inhibition is inactive: -3.4%.

In the case of `O=P1(N(CCCl)CCCl)SCCCS1`, the inhibition was inactive: -9.3%.

Take `CCCCOc1ccc(C(=O)NCC2(N3CCOCC3)CCCCC2)cc1`: the inhibition is inactive: 7.4%.

As to `O=C(NCC1(N2CCCCC2)CCCCC1)c1ccc(F)cc1`, the inhibition was inactive: -1.3%.

`O=C1CCN(Cc2ccccc2)CC1`: the inhibition is inactive: -7.9%.

For `CC(C)(C)n1nnnc1C(c1ccccc1)N1CCC(n2c(=O)[nH]c3ccccc32)CC1` (stereo unspecified), the inhibition is inactive: 2.6%.

`CCOc1ccc(C)cc1CN(CCCl)CCCl`: the inhibition was inactive: -0.2%.
